A mixed list of measured activities; the numbers were collected in NIAID ChemDB.

Common to all: host cell toxicity; cells: CEM; read-out: CC50

CCn: concentration that lowers growth or viability of the cells by n%.

structure,result
CC[C@H](C)C(NC(=O)c1ccccc1S)C(=O)O,>100 µM
CCC1=C(C(=O)Nc2ccc(Cl)c(C(=O)OC(C)C)c2)SCCO1,>100 µg/mL
C=C(C)[C@@H]1CC[C@]2(C(=O)NCCCCCCCC(=O)N[C@@H](CC(C)C)[C@@H](O)CC(=O)O)CC[C@]3(C)[C@H](CC[C@@H]4[C@@]5(C)CC[C@H](O)C(C)(C)[C@@H]5CC[C@]43C)[C@@H]12,>3 µM
O=C(O)C[C@H](CC1CCCCC1)NC(=O)c1ccccc1SSc1ccccc1C(=O)N[C@H](CC(=O)O)CC1CCCCC1,42 µM
CCOC(=O)c1cc(NC(=O)C2=C(C)OCCS2)ccc1Cl,35 µg/mL
O=C(O)C[C@H](NC(=O)c1ccccc1SSc1ccccc1C(=O)N[C@@H](CC(=O)O)C(=O)O)C(=O)O,>100 µM
C=C(C)[C@@H]1CC[C@]2(C(=O)NCCC(=O)NCCCCCCC(=O)O)CC[C@]3(C)[C@H](CC[C@@H]4[C@@]5(C)CC[C@H](O)C(C)(C)[C@@H]5CC[C@]43C)[C@@H]12,>3 µM
COc1ccc(/C=N/NC(=O)CN2c3c(-c4ccccc4)n[nH]c3-c3ccccc3S2(=O)=O)cc1,31.6 µM
CCCNC(=O)c1ccccc1SSc1ccccc1C(=O)NCCC,19 µM
COc1ccc2c(c1)OC[C@@H]1c3cc(O)c(OCc4ccccc4)cc3O[C@H]21,40.5 µM
CCC(=O)c1ccc2c(c1)sc(=O)n2CCN1CCCCC1,52 µg/mL
O=C(Nc1ccc(O)cc1)c1ccccc1SSc1ccccc1C(=O)Nc1ccc(O)cc1,33 µM
COC(=O)c1cc(NC(=O)C2=C(C)OCCS2)ccc1Cl,>100 µg/mL
O=C(CN1c2c(-c3ccccc3)n[nH]c2-c2ccccc2S1(=O)=O)N/N=C/c1ccc([N+](=O)[O-])cc1,20.8 µM
CC(=O)Nc1ccc(/C=N/NC(=O)Cn2nc(-c3ccccc3)c3c2-c2ccccc2S(=O)(=O)N3C)cc1,44.6 µM
O=C(c1ccc2[nH]c(=O)oc2c1)c1ccccc1F,10 µg/mL
CC1=C(C(=O)Nc2ccc(C)c(C(=O)OC(C)C)c2)SCCO1,>100 µg/mL
CN1c2c(-c3ccccc3)nn(CC(=O)N/N=C/c3c(Cl)cccc3Cl)c2-c2ccccc2S1(=O)=O,78.6 µM
Nc1ccn([C@H]2C=C(F)[C@@H](CO)O2)c(=O)n1,>100 µM
O=C(CN1c2c(-c3ccccc3)n[nH]c2-c2ccccc2S1(=O)=O)N/N=C/c1c(Cl)cccc1Cl,<1 µM
NS(=O)(=O)c1ccc(OC(=O)c2ccccc2SSc2ccccc2C(=O)Oc2ccc(S(N)(=O)=O)cc2)cc1,>162 µM
CN(C)c1ccc(/C=N/NC(=O)CN2c3c(-c4ccccc4)n[nH]c3-c3ccccc3S2(=O)=O)cc1,28.9 µM
Cc1cc(C)cc(C(=O)c2c(C(C)C)c(=O)[nH]c(=O)n2Cc2ccccc2)c1,22.3 µM
CN1c2c(-c3ccccc3)nn(CC(=O)N/N=C/c3ccc(Cl)c(Cl)c3)c2-c2ccccc2S1(=O)=O,19.3 µM
CC[C@H](C)[C@H](NC(=O)c1ccccc1SSc1ccccc1C(=O)N[C@H](C(=O)OC(C)(C)C)[C@@H](C)CC)C(=O)OC(C)(C)C,95 µM
CC(=O)n1c(=O)sc2cc(C(=O)c3ccccc3)ccc21,6.1 µg/mL
O=c1ccn([C@H]2C=C(F)[C@@H](CO)O2)c(=O)[nH]1,>100 µM
COc1ccc(/C=N/NC(=O)Cn2nc(-c3ccccc3)c3c2-c2ccccc2S(=O)(=O)N3C)cc1,20.7 µM
Cc1cn([C@@H]2C=C(F)[C@H](CO)O2)c(=O)[nH]c1=O,>100 µM
O=C(CN1c2c(-c3ccccc3)n[nH]c2-c2ccccc2S1(=O)=O)N/N=C/c1ccccc1F,15.4 µM
NS(=O)(=O)c1ccc(NC(=O)c2cccc(SSc3cccc(C(=O)Nc4ccc(S(N)(=O)=O)cc4)c3)c2)cc1,>100 µM
CN1c2c(-c3ccccc3)nn(CC(=O)N/N=C/c3cccc(Cl)c3)c2-c2ccccc2S1(=O)=O,12.1 µM
CCc1c(Oc2cc(C)cc(C)c2)n(CC2CC=CC2)c(=O)[nH]c1=O,>60 µM
COc1ccc2c(c1)OCC1c3cc(OC)c(OCc4ccccc4)cc3OC21,69.4 µM
CCCC1=C(C(=O)Nc2ccc(Cl)c(C(=O)OC)c2)SCCO1,>100 µg/mL
C=C(C)[C@@H]1CC[C@]2(C(=O)NCCCCCCCC(=O)NC(C)(C)C(=O)O)CC[C@]3(C)[C@H](CC[C@@H]4[C@@]5(C)CC[C@H](O)C(C)(C)[C@@H]5CC[C@]43C)[C@@H]12,>3 µM
CCC(=O)Oc1ccc(NC(=O)C2=C(C)OCCS2)cc1C(=O)OC(C)C,27 µg/mL
CN1c2c(-c3ccccc3)nn(CC(=O)N/N=C/c3ccc([N+](=O)[O-])cc3)c2-c2ccccc2S1(=O)=O,>100 µM
O=C(NCCO)c1ccccc1SSc1ccccc1C(=O)NCCO,16 µM
O=C(N[C@@H](CC1CCCCC1)C(=O)O)c1ccccc1SSc1ccccc1C(=O)N[C@@H](CC1CCCCC1)C(=O)O,23 µM
CN1c2c(-c3ccccc3)nn(CC(=O)N/N=C/c3ccccc3F)c2-c2ccccc2S1(=O)=O,23.4 µM
Cc1cc(C)cc(Oc2c(C(C)C)c(=O)[nH]c(=O)n2CC2=CCCC2)c1,24.6 µM
C=C(C)[C@@H]1CC[C@]2(C(=O)NCCCCCCCNC(=O)c3ccc(C(=O)O)cc3)CC[C@]3(C)[C@H](CC[C@@H]4[C@@]5(C)CC[C@H](O)C(C)(C)[C@@H]5CC[C@]43C)[C@@H]12,2.97 µM
O=C(CN1c2c(-c3ccccc3)n[nH]c2-c2ccccc2S1(=O)=O)N/N=C/c1ccc(Br)cc1,12.6 µM
C=C(C)[C@@H]1CC[C@]2(C(=O)NCCCCCCCC(=O)N3CCCC(C(=O)O)C3)CC[C@]3(C)[C@H](CC[C@@H]4[C@@]5(C)CC[C@H](O)C(C)(C)[C@@H]5CC[C@]43C)[C@@H]12,>3 µM
CCc1c(Sc2cc(C)cc(C)c2)n(CC2CC=CC2)c(=O)[nH]c1=O,59.5 µM
CCCCOC[C@H](NC(=O)c1ccccc1SSc1ccccc1C(=O)N[C@@H](COCCCC)C(=O)O)C(=O)O,>100 µM
CN(C)c1cccc(C(=O)c2ccc3c(c2)sc(=O)n3C)c1,>40 µg/mL
O=C(Nc1ccc([N+](=O)[O-])cc1)c1ccccc1SSc1ccccc1C(=O)Nc1ccc([N+](=O)[O-])cc1,14 µM
CCc1c(Sc2cc(C)cc(C)c2)n(CC2CC2)c(=O)[nH]c1=O,21.2 µM

The first 3 rows once more:

structure,result
CC[C@H](C)C(NC(=O)c1ccccc1S)C(=O)O,>100 µM
CCC1=C(C(=O)Nc2ccc(Cl)c(C(=O)OC(C)C)c2)SCCO1,>100 µg/mL
C=C(C)[C@@H]1CC[C@]2(C(=O)NCCCCCCCC(=O)N[C@@H](CC(C)C)[C@@H](O)CC(=O)O)CC[C@]3(C)[C@H](CC[C@@H]4[C@@]5(C)CC[C@H](O)C(C)(C)[C@@H]5CC[C@]43C)[C@@H]12,>3 µM

Lines come from different laboratories, so protocols vary.